In the supplement of paper PMC12637763:
The other results are listed elsewhere or left out. Env chains of viruses from a treatment-interruption trial, translated from the printed DNA. IC50 / IC80 of two broadly neutralizing antibodies; lower = more sensitive virus; >50 µg/ml means not reached and <0.001 µg/ml is below the lowest dose. No active / inactive call.

B1: HIV-1 Env, reservoir clone (protein)
chain: MRVKEIKRNCQRLWKWGTMLLGMLMICSAADNLWVTVYYGVPVWKDATTTLFCASDAKGYETEVHNVWATHACVPTDPSPNEVVLENVTENFNMWKNDMVEQMHEDIISLWDQSLKPCVKLTPLCVTLHCTNATNNVTLNCTANADVKCNTTGSSGHNATNGTMVFKTETDEIKNCTFNITTSTREHVKGHALFSDLDLVYNDKNQSYRLIRCNTSVITQACPKVSFEPIPIHYCAPAGFAILKCRDKGFNGTGPCKNVSTVQCTHGIRPVVSTHLLLNGSLAEGEVVIRSENFTNNAKTIIVQLAEAVNISCSRPNNNTRKRMSLGPGKVWYSTGDIIGDIRKAHCNLSSQAWNKTLHQVVAKLREQFENKTIIFKPPPGGDPEIIMHSFNCGGEFFYCNSTPLFNSTWHNSTWNSTMDRNFSDTSEITLQCRIKQIINMWQGVGRAMYAPPIKGQIRCSSNITGLLLTRDGGNTITTSTNETFRPGGGNMKDNWRSELYKYKVIKIEPLGVAPTKARRRVVQREKRAVGVIGAMFLGFLGAAGSTMGAASLTLTVQARQLLSGIVQQQNNLLKAIEAQQQLLRLTVWGIKQLQARVLAVERYLRDQQLLGIWGCSGKLICTTSVPWNASWSNKSVDDIWGNMTWMQWEREIDNYTGIIYNLLEKSQNQQEKNEQELLELDKWASLWNWFDISNWLWYIKIFIMVVGGLVGLRIVFAVLSIVNRVRQGYSPLSFQTRFPVPRGPDRPEGIEEGGGERDRGRSDRLVTGLLELIWDDLRSLCIFSYHRLSDLLLIAARIVELLGRRGWEVLKYWWNLLQYWSQELKNSSVSLLNATAIAVAEGTDRIIEAVLRIYRAIIHIPTRIRQGLERALL
B2: HIV-1 Env, reservoir clone (protein)
chain: MRVKGIKRNCQRLWKWGTMLLGMLMICSAADNLWVTVYYGVPVWKDATTTLFCASDAKGYETEVHNVWATHACVPTDPSPNEVVLENVTENFNMWKNDMVEQMHEDIISLWDQSLKPCVKLTPLCVTLHCTNATNNVTLNCTANADVKCNITGGSGHNATNGTMVFKTETDEIKNCTFNITTSTREHVKGHALFSDLDLVYNDKNQSYRLIRCNTSVITQACPKVSFEPIPIHYCAPAGFAILKCRDKGFNGTGPCKNVSTVQCTHGIRPVVSTHLLLNGSLAEGGVVIKSENFSDNAKTIIVQLAETVNITCSRPNNNTRKRMSLGPGKVWYSTGDIIGDIRKAHCNLSRSAWNKTLHQVVAKLREQFENKTIIFKSPPGGDPEILMHNFICGGEFFYCNSTPLFNTTWHNSTWNSTMGNTEGSNDTNITLHCRIKQIINMWQGVGRAMYAPPIKGQIRCSSNITGILLTRDGGNNITTSTNETFRPGGGNMKDNWRSELYKYKVIKIEPLGVAPTKARRRVVQREKRAVGVIGAMFLGFLGAAGSTMGAASLTLTVQARQLLSGIVQQQNNLLKAIEAQQQLLRLTVWGIKQLQARVLAVERYLRDQQLLGIWGCSGKLICTTSVPWNASWSNKSVDDIWGNMTWMQWEREIDNYTGIIYNLLEKSQNQQEKNEQELLELDKWASLWNWFDISNWLWYIKIFIMVVGGLIGLRIVFAVLSVVNRVRQGYSPLSFQTRFPVPRGPDRPEGIEEGGGERDRGRSDRLVTGLLELIWDDLRSLCIFSYHRLSDLLLIAARIVELLGRRGWEVLKYWWNLLQYWSQELKNSAVSLLNATAIAVAEGTDRIIEAVLRIYRAIIHIPTRIRQGLERALL
B3: HIV-1 Env, reservoir clone (protein)
chain: MRVKGIKRNCQRLWKWGTMLLGMLMICSAADNLWVTVYYGVPVWKDATTTLFCASDAKGYETEVHNVWATHACVPTDPSPNEVVLENVTENFNMWKNDMVEQMHEDIISLWDQSLKPCVKLTPLCVTLHCTNATSNVTLNCTGATKDGRCNTTVSSGNNTTDGTQVVRTETDEIKNCTFNITTSTRENVKGHALFSDLDIVPIDNNDNSSDTNYKLIRCNTSVITQACPKVSFEPIPIHYCAPAGFAILKCRDKGFNGTGPCKNVSTVQCTHGIRPVVSTHLLLNGSLAEGGVVIKSENFSDNAKTIIVQLADAVNITCSRPNNNTRKRMSLGPGKVWYSTGDIIGDIRKAHCNLSRSAWNKTLHQVVAKLREQFGNKTIIFKPPPGGDPEILMHNFICGGEFFYCNSTQLFNSTWNSTMDSSTGESNDTNITLHCKIKQIINMWQEVGRAMYAPPIKGQIRCSSNITGLLLTRDGGNNIDTPSTNETFRPGGGNMKDNWRSELYKYKVVKIEPLGVAPTKARRRVVQREKRAVGVIGAMFLGFLGAAGSTMGAASLTLTVQARQLLSGIVQQQNNLLKAIEAQQQLLRLTVWGIKQLQARVLAVERYLRDQQLLGIWGCSGKLICTTSVPWNASWSNKSVDDIWENMTWMQWEREIDNYTGIIYNLLEKSQNQQEKNEQELLELDKWASLWNWFDISNWLWYIKIFIMIVGGLVGLRIVFAVLSIVNRVRQGYSPLSFQTRFPAPRGPDRPEGIEEGGGERDRGRSDRLVTGLLELIWDDLRSLCLFSYHRLSDLLLIAARIVELLGRRGWEVLKYWWNLLQYWSQELKNSSVSLLNATAIAVAEGTDRIIEVVLRIYRAIIHIPTRIRQGLERALL
B4: HIV-1 Env, reservoir clone (protein)
chain: MRVKGIKRNCQRLWKWGTMLLGMLMICSAADNLWVTVYYGVPVWKDATTTLFCASDAKGYETEVHNVWATHACVPTDPSPNEVVLENVTENFNMWKNDMVEQMHEDIISLWDQSLKPCVKLTPLCVTLKCTNATSCTSANATKNVRCDATDSSGNTTTNGTQGVTQGVRTETDEIKNCTFNITTSTRENVEGRALFSDLDLVYDSSAQSYRLIRCNTSVITQACPKVSFEPIPIHYCAPAGFAILKCRDKGFNGTGPCKNVSTVQCTHGIRPVVSTHLLLNGSLAEGKVVIRSENFTDNAKTIIVQLKEAVNMTCIRPNNNTRKRMSLGPGKVWYSTGDIIGDIRKAQCNLSSQAWNKTLHQVVAKLREQFENKTIIFKPPPGGDPEILMHNFNCGGEFFYCNSTPLFNTTWLNSTWNSTMDRNSSDTSEITLQCRIKQIINMWQGVGRAMYAPPIKGQIKCSSNITGLLLTRDGGNNITSTNETFRPGGGNMKDNWRSELYKYKVIKIEPLGVAPTKARRRVVQREKRAVGVIGAMFLGFLGAAGSTMGAASLTLTVQARQLLSGIVQQQNNLLKAIEAQQQLLRLTVWGIKQLQARVLAVERYLRDQQLLGIWGCSGKLICTTSVPWNASWSNKSVDDIWGNMTWMQWEREIDNYTGIIYNLLEKSQNQQEKNEQELLELDKWASLWNWFDISNWLWYIKIFIMVVGGLIGLRIVFAVLSVVNRVRQGYSPLSFQTRFPAPRGPDRPEGIEEGGGERDRGRSDRLVTGLLELIWDDLRSLCIFSYHRLSDLLLIAARIVELLGRRGWEVLKYWWNLLQYWSQELKNSAVSLLNATAIAVAEGTDRIIEAVLRIYRAIIHIPTRIRQGLERALL
B5: HIV-1 Env, reservoir clone (protein)
chain: MRVKGIKRNCQRLWRWGTMLLEMLMICSAADNLWVTVYYGVPVWKDATTTLFCASDAKGYETEVHNVWATHACVPTDPSPNEVVLENVTENFNMWKNDMVEQMHEDIISLWDQSLKPCVKLTPLCVTLHCTNATSNVPLNCTGATQDVRCNTTESSGNSTTNSTKVSTTATDEIKNCTFNITTSTRENVEGRALFSDLDLVYNSSAQSYRLIRCNTSVITQACPKVSFEPIPIHYCAPAGFAILKCRDKGFNGTGPCKNVSTVQCTHGIRPVVSTHLLLNGSLAEGGVVIKSENFSNNAKTIIVQLAEAVNITCSRPNNNTRKRMSLGPGKVWYSTGDIIGDIRKAHCNLSGSAWNKTLHQVVAKLREQFENKTIIFKPPPGGDPEILMHNFICGGEFFYCNSTPLFNTTWHNSTWNSTMGNTEGSNDTNITLHCRIKQIINMWQGVGRAMYAPPIKGQIRCSSNITGILLTRDGGNNITTSTNETFRPGGGNMKDNWRSELYKYKVIKIEPLGVAPTKARRRVVQREKRAVGVIGAMFLGFLGAAGSTMGAASLTLTVQARQLLSGIVQQQNNLLKAIEAQQQLLRLTVWGIKQLQARVLAVERYLRDQQLLGIWGCSGKLICTTSVPWNASWSNKSVDDIWGNMTWMQWEREIDNYTGIIYNLLEKSQNQQEKNEQELLELDKWASLWNWFDISNWLWYIKIFIMVVGGLIGLRIVFAVLSIVNRVRQGYSPLSFQTRFPVPRGPDRPEGIEEGGGERDRGRSDRLVTGLLELIWDDLRSLCIFSYHRLSDLLLIAARIVELLGRRGWEALKYWWNLLQYWSQELKNSSVSLLNATAIAVAEGTDRIIEAVLRIYRAIIHIPTRIRQGLERALL
B6: HIV-1 Env, reservoir clone (protein)
chain: MRVKGIKRNCQRLWRWGTMLLGMLMICSAADNLWVTVYYGVPVWKDATTTLFCASDAKGYETEVHNVWATHACVPTDPSPNEVVLENVTENFNMWKNDMVEQMHEDIISLWDQSLKPCVKLTPLCVTLHCTNATSNVPLNCTGATQDVRCNTTESSGNSTTNSTKVSTTATDEIKNCTFNITTSTRENVEGRALFSDLDLVYNSSAQSYRLIRCNTSVITQACPKVSFEPIPIHYCAPAGFAILKCRDKGFNGTGPCKNVSTVQCTHGIRPVVSTHLLLNGSLAEGGVVIKSENFSNNAKTIIVQLAEAVNITCSRPNNNTRKRMSLGPGKVWYSTGDIIGDIRKAHCNLSGSAWNKTLHQVVAKLREQFENKTIIFKPPPGGDPEILMHNFICGGEFFYCNSTPLFNTTWHNSTWNSTMGNTEGSNDTNITLHCRIKQIINMWQGVGRAMYAPPIKGQIRCSSNITGILLTRDGGNNITTSTNETFRPGGGNMKDNWRSELYKYKVIKIEPLGVAPTKARRRVVQREKRAVGVIGAMFLGFLGAAGSTMGAASLTLTVQARQLLSGIVQQQNNLLKAIEAQQQLLRLTVWGIKQLQARVLAVERYLRDQQLLGIWGCSGKLICTTSVPWNASWSNKSVDDIWGNMTWMQWEREIDNYTGIIYNLLEKSQNQQEKNEQELLELDKWASLWNWFDISNWLWYIKIFIMVVGGLIGLRIVFAVLSIVNRVRQGYSPLSFQTRFPVPRGPDRPEGIEEGGGERDRGRSDRLVTGLLELIWDDLRSLCIFSYHRLSDLLLIAARIVELLGRRGWEALKYWWNLLQYWSQELKNSSVSLLNATAIAVAEGTDRIIEAVLRIYRAIIHIPTRIRQGLERALL

target: antibody 10-1074; assay: neutralization IC50; higher = virus less sensitive to the antibody
Description: (§1)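 Pseudovirus bearing the Env chain mixed with antibody, from 50 µg/ml in fivefold dilutions, on TZM-bl reporter cells, in duplicate.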

Binder | neutralization IC50
B1 | 0.19 µg/mL
B2 | 0.094 µg/mL
B3 | 0.057 µg/mL
B4 | 0.013 µg/mL
B5 | 0.145 µg/mL
B6 | 0.145 µg/mL

target: antibody 3BNC117; assay: as above
Description: as §1

Binder | neutralization IC50
B1 | 0.009 µg/mL
B2 | 0.039 µg/mL
B3 | 0.033 µg/mL
B4 | 0.003 µg/mL
B5 | 0.006 µg/mL
B6 | 0.006 µg/mL

target: antibody 10-1074; assay: neutralization IC80; higher = virus less sensitive to the antibody
Description: as §1

Binder | neutralization IC80
B1 | 2.25 µg/mL
B2 | 0.942 µg/mL
B3 | 0.476 µg/mL
B4 | 0.306 µg/mL
B5 | 1.82 µg/mL
B6 | 1.82 µg/mL

target: antibody 3BNC117; assay: as above
Description: as §1

Binder | neutralization IC80
B1 | 0.028 µg/mL
B2 | 0.247 µg/mL
B3 | 0.109 µg/mL
B4 | 0.012 µg/mL
B5 | 0.032 µg/mL
B6 | 0.032 µg/mL
